A mixed list of measured activities; the numbers were collected in NIAID ChemDB.

All rows: host cell toxicity; cell line: PBMC; endpoint: CC50

CCn: concentration that lowers growth or viability of the cells by n%.

structure,read by,result
O=C(NCCc1ccc2c(n1)NCCC2)Nc1cccc(-c2ccc(F)cc2F)n1,-,50 µM
Cc1cn([C@H]2C[C@H](N=[N+]=[N-])[C@@H](COP(=O)(OCCSC(=O)C(C)(C)C)OCCSC(=O)C(C)(C)C)O2)c(=O)[nH]c1=O,-,>10 µM
NC(N)=NC(=O)c1ccc(N2CCCCCC2)nc1,fluorescence,112 µM
Nc1ccn([C@H]2O[C@@H](CO)C=C2F)c(=O)n1,-,>100 µM
COc1cc(C(=O)OCc2nc3ccccc3nc2C)cc(OC)c1OC,MTS,>100 µM
O=C(NCCc1ccc2c(c1)NCCC2)Nc1ccc(C(F)(F)F)cc1,-,50 µM
Nc1ccn([C@@H]2S[C@H](CO)C=C2F)c(=O)n1,-,>100 µM
Nc1nc2c(ncn2[C@@H]2O[C@H](CO)C(F)(F)C2(F)F)c(=O)[nH]1,-,>100 µM
Cc1cn([C@@H]2CC(CO)=C[C@H]2O)c(=O)[nH]c1=O,trypan blue,>100 µM
CC(C)C(Cc1ccccc1)NC(=O)C[C@@H]1O[C@@H]1[C@H](Cc1ccccc1)NC(=O)[C@@H](NC(=O)c1cccs1)C(C)(C)S(C)(=O)=O,-,>10 µM
FC(F)(F)c1ccc(NC(=S)NCCC2=CCCCC2)nc1,-,>100 µM
O=C(O)CCN(CCN(CC(=O)O)Cc1cnc2c(O)cccc2c1)CC(=O)O,MTT,>50 µM
Nc1nc2c(ncn2[C@H]2S[C@@H](CO)C=C2F)c(=O)[nH]1,-,>13 µM
COc1ccc(NC(=O)NCCc2ccc3c(n2)NCCC3)cn1,-,50 µM
Nc1nc(=O)n([C@@H]2C=C[C@H](CO)O2)cc1F,-,>100 µM
CC(=O)OC[C@H]1O[C@@H](SCCOP(=O)(O)OC[C@H]2O[C@@H](n3cc(C)c(=O)[nH]c3=O)C[C@@H]2N=[N+]=[N-])[C@H](OC(C)=O)[C@@H](OC(C)=O)[C@@H]1OC(C)=O,-,>10 µM
CCCCCCCc1ccc(-c2cn(C/C(C)=C/CP(=O)(OCOC(=O)OC(C)C)OCOC(=O)OC(C)C)nn2)cc1,absorbance,9.2 µM
S=C(NCCN1CCNCC1)Nc1ccc(Br)cn1,MTT,>100 µM
OC[C@@H]1C[C@H](F)[C@H](n2cnc3c(Br)ncnc32)O1,-,>80 µM
O=c1ccn([C@@H]2O[C@H](CO)C(F)(F)C2(F)F)c(=O)[nH]1,-,>100 µM
OC[C@@H]1C[C@H](F)[C@H](n2cnc3c(Cl)ncnc32)O1,-,>80 µM
Cc1cn([C@H]2C[C@H](N=[N+]=[N-])[C@@H](COP(=O)(O)OCCS[C@@H]3O[C@H](CO)[C@@H](O)[C@H](O)[C@H]3O)O2)c(=O)[nH]c1=O,-,>10 µM
COc1cc(-c2ccc(Nc3ccccc3C(=O)O)c(OC)c2)ccc1Nc1ccccc1C(=O)O,MTS,>100 µM
COc1cc(O)c(CC=C(C)C)c(O)c1C(=O)/C=C/c1ccc(O)cc1,trypan blue,>121.8 µM
Cc1c(Cl)ccc2cc(/C=C/c3cccc4c3OCCO4)c(Cl)nc12,MTT,87.09 µM
CN(CCc1ccc2c(n1)NCCC2)C(=O)Nc1cccc(F)c1,-,50 µM
Cc1ccc2nc(Cl)c(/C=C/C(=O)c3sccc3C)cc2c1,MTS,25.3 µM
O=C(NCCc1ccc2c(n1)NCCC2)Nc1ccc(F)c(F)c1F,-,24 µM
C[C@@H](CN[C@H](CN[C@H](CN[C@H](CNCCC(N)=O)Cc1ccc(O)cc1)Cc1ccc(O)cc1)Cc1ccc(O)cc1)NC[C@H](Cc1ccc(O)cc1)NC[C@@H](N)Cc1ccc(O)cc1,MTS,>100 µM
Cc1ccc(-c2c([C@H](OC(C)(C)C)C(=O)O)c(C)nc3ccccc23)cc1C,-,149 µM
Nc1ncnc2c1ncn2[C@@H]1O[C@H](CO)C(F)(F)C1(F)F,-,>100 µM
CCCCCCCCCCCCCCCCCCOCCOP(=O)(CO[C@H](C)Cn1cnc2c(N)ncnc21)OCc1ccccc1C,luminescence,1.44 µM
CC(C)C(Cc1ccccc1)NC(=O)C[C@@H]1O[C@@H]1[C@H](Cc1ccccc1)NC(=O)[C@@H](NC(=O)c1ccco1)C(C)(C)S(C)(=O)=O,-,>10 µM
Cc1cn([C@H]2C[C@H](N=[N+]=[N-])[C@@H](COC(=O)OC[C@@H]3O[C@H]3CO)O2)c(=O)[nH]c1=O,-,>20 µM
CNC(=O)c1cn(C/C(C)=C/CP(=O)(OCOC(=O)OC(C)C)OCOC(=O)OC(C)C)nn1,absorbance,78.3 µM
Nc1ccn(C[C@H]2C[C@H]2CO)c(=O)n1,-,>100 µM
C/C(=C\CP(=O)(OCOC(=O)OC(C)C)OCOC(=O)OC(C)C)Cn1cc(C(=O)O)nn1,absorbance,>100 µM
Cc1cn([C@H]2C[C@H](N=[N+]=[N-])[C@@H](CO)O2)c(=O)[nH]c1=O,MTS,>1 µM
Nc1ccn([C@H]2C=C(F)[C@@H](CO)O2)c(=O)n1,-,>100 µM
C/C(=C/C(=O)c1ccccc1)Nc1ccc(O)cc1,MTS,>100 µM
CCCCCc1ccc(-c2cn(C/C(C)=C/CP(=O)(OCOC(=O)OC(C)C)OCOC(=O)OC(C)C)nn2)cc1,absorbance,47.8 µM
O=C(NCCc1nccc(-n2ccnc2)n1)Nc1cccc(F)c1,-,50 µM
COc1ccc2nc(Cl)c(/C=C/C(=O)c3sccc3Cl)cc2c1,MTS,14.6 µM
NCC(=O)N1CCC[C@H]1C(=O)NCC(N)=O,-,>500 µM
Nc1ccn([C@@H]2CC(CO)=C[C@H]2O)c(=O)n1,trypan blue,>100 µM
CC(C)C(Cc1ccccc1)NC(=O)C[C@@H]1O[C@@H]1[C@H](Cc1ccccc1)NC(=O)[C@@H](NC(=O)OCc1ccco1)C(C)(C)S(C)(=O)=O,-,>10 µM
O=c1[nH]cc(F)c(=O)[nH]1,-,9 µM
Cc1c(Cl)ccc2cc(/C=C/C(=O)c3cccc(Br)c3)c(Cl)nc12,MTT,34.01 µM
CCOC(=O)N[C@H](C(=O)N[C@@H](Cc1ccccc1)[C@H]1O[C@H]1CC(=O)NC(C(C)C)C(C)C)C(C)(C)S(C)(=O)=O,-,>10 µM
NC(=O)CCNC[C@H](Cc1ccc(O)cc1)NC[C@H](Cc1ccc(O)cc1)NC[C@H](Cc1ccc(O)cc1)NC[C@H](Cc1ccc(O)cc1)NC[C@H](Cc1ccc(O)cc1)NC[C@@H](N)Cc1ccc(O)cc1,MTS,>100 µM
C/C(=N\NC(=O)c1ccccc1)c1cccc(/C(C)=N/NC(=O)c2ccccc2)n1,MTT,85.92 µM
CC(C)(CS(=O)(=O)[O-])[NH2+]C(=O)C(CC(F)(OC(F)(F)C(F)(OC(F)(F)C(F)(OC(F)(F)C(F)(F)C(F)(F)F)C(F)(F)F)C(F)(F)F)C(F)(F)F)C(F)(OC(F)(F)C(F)(OC(F)(F)C(F)(OC(F)(F)C(F)(F)C(F)(F)F)C(F)(F)F)C(F)(F)F)C(F)(F)F,-,54.6 µg/mL
COc1ccc(C(=O)/C=C/c2cc3ccc(Cl)c(C)c3nc2Cl)cc1,MTT,50.5 µM
CCCCc1ccc(-c2cn(C/C(C)=C/CP(=O)(OCOC(=O)OC(C)C)OCOC(=O)OC(C)C)nn2)cc1,absorbance,19.4 µM
Nc1nccc2c1ncn2[C@@H]1C=C(CO)[C@@H](O)[C@H]1O,-,9.98 µM
Cc1cccc(C(=O)OCc2nc3ccccc3nc2C)c1O,MTS,>100 µM
CCCCCCCCCCCCCCCCCCOCCOP(=O)(O)CO[C@H](CO)Cn1cnc2c(=O)[nH]c(N)nc21,flow cytometry,21.7 µM
CC1(C)Oc2ccc3ccc(=O)oc3c2[C@@H](OC(=O)C23CCC(C)(C(=O)O2)C3(C)C)[C@H]1OC(=O)C12CCC(C)(C(=O)O1)C2(C)C,-,13.7 µM
COc1ccc(/C=C/c2cc(Cl)c3cc(Cl)ccc3n2)c(OC)c1,MTT,5.34 µM
Nc1ccn([C@@H]2O[C@H](CO)C=C2F)c(=O)n1,-,7.3 µM
CC(C)CCC[C@@H](C)[C@H]1CCC2C3CCC4C[C@@H](OCc5cn([C@@H]6O[C@H](COS(=O)(=O)[O-])[C@@H](O[C@H]7O[C@H](COS(=O)(=O)[O-])[C@@H](O[C@H]8O[C@H](COS(=O)(=O)[O-])[C@@H](OS(=O)(=O)[O-])[C@H](OS(=O)(=O)[O-])[C@H]8OS(=O)(=O)[O-])[C@H](OS(=O)(=O)[O-])[C@H]7OS(=O)(=O)[O-])[C@H](OS(=O)(=O)[O-])[C@H]6OS(=O)(=O)[O-])nn5)CC[C@]4(C)C3CC[C@@]21C,-,300 µg/mL
Cc1ccc(/C=C/c2cc3ccc(Cl)c(C)c3nc2Cl)s1,MTT,51.89 µM
Cc1ccc2nc(Cl)c(/C=C/C(=O)c3ccsc3)cc2c1,MTS,10.7 µM
S=C(NCCc1ccc2c(n1)NCCC2)NC1Cc2ccccc2C1,-,2.4 µM
Nc1nc2c(ncn2[C@@H]2CC(CO)=C[C@H]2O)c(=O)[nH]1,trypan blue,>100 µM
O=C(NCC1CCc2ccccc2N1)Nc1cccc2ccccc12,-,50 µM
Cc1nc2ccccc2nc1COC(=O)c1ccc2ccccc2c1O,MTS,>100 µM
O=C(NCCc1ccccc1)C1=Cc2ccncc2CC1,-,74.7 µg/mL
COc1ccc2ccc3c(c2c1)OC1(CCN(Cc2ccc(C#N)cc2)CC1)NC3=O,MTT,1.2 µM
CCCCCCc1ccc(-c2cn(C/C(C)=C/CP(=O)(OCOC(=O)OC(C)C)OCOC(=O)OC(C)C)nn2)cc1,absorbance,23.7 µM
CCCCCCCCCCCCCCCCCCOCCOP(=O)(O)CO[C@H](CO)Cn1ccc(N)nc1=O,flow cytometry,7.5 µM
CN(C)c1cccc(CCNC(=O)NCc2ccc(Cl)c(Cl)c2)n1,-,50 µM
Nc1ccc2c(O)c(Br)c(S(=O)(=O)O)cc2c1Br,-,500 µM
COc1ncnc2c1ncn2[C@@H]1O[C@H](CO)C[C@@H]1F,-,>80 µM
Cc1cn([C@H]2C=C[C@@H](CO)O2)c(=O)n(CCCCCCN2CCN(CCNC(=S)Nc3ccc(Br)cn3)CC2)c1=O,MTT,>100 µM
C[Si](O)(O[Si](C)(CCCn1cnc2c(N)ncnc21)c1ccccc1)c1ccccc1,-,>100 µM
Cc1cn(C[C@H]2C[C@H]2CO)c(=O)[nH]c1=O,-,>100 µM
CC(C)C(Cc1ccccc1)NC(=O)C[C@@H]1O[C@@H]1[C@H](Cc1ccccc1)NC(=O)[C@@H](NC(=O)c1cccnc1)C(C)(C)S(C)(=O)=O,-,>10 µM
COC(=O)c1ccc(=O)c2nc3/c(=C\O)c(O)cc(=O)c3[nH]c12,MTS,>3.6 µM

The last 10 rows once more:

structure	read by	result
CCCCCCc1ccc(-c2cn(C/C(C)=C/CP(=O)(OCOC(=O)OC(C)C)OCOC(=O)OC(C)C)nn2)cc1	absorbance	23.7 µM
CCCCCCCCCCCCCCCCCCOCCOP(=O)(O)CO[C@H](CO)Cn1ccc(N)nc1=O	flow cytometry	7.5 µM
CN(C)c1cccc(CCNC(=O)NCc2ccc(Cl)c(Cl)c2)n1	-	50 µM
Nc1ccc2c(O)c(Br)c(S(=O)(=O)O)cc2c1Br	-	500 µM
COc1ncnc2c1ncn2[C@@H]1O[C@H](CO)C[C@@H]1F	-	>80 µM
Cc1cn([C@H]2C=C[C@@H](CO)O2)c(=O)n(CCCCCCN2CCN(CCNC(=S)Nc3ccc(Br)cn3)CC2)c1=O	MTT	>100 µM
C[Si](O)(O[Si](C)(CCCn1cnc2c(N)ncnc21)c1ccccc1)c1ccccc1	-	>100 µM
Cc1cn(C[C@H]2C[C@H]2CO)c(=O)[nH]c1=O	-	>100 µM
CC(C)C(Cc1ccccc1)NC(=O)C[C@@H]1O[C@@H]1[C@H](Cc1ccccc1)NC(=O)[C@@H](NC(=O)c1cccnc1)C(C)(C)S(C)(=O)=O	-	>10 µM
COC(=O)c1ccc(=O)c2nc3/c(=C\O)c(O)cc(=O)c3[nH]c12	MTS	>3.6 µM

An empty or dashed field is not shown. Conditions beyond the fields shown may differ between rows.